Pooled drug test results. Numbers come from NIAID ChemDB, via PubChem.

All rows: toxicity to cultured cells; cell line: C8166; measure: CC50

Neighbouring rows are from separate reports. CCn: concentration that lowers growth or viability of the cells by n%.

SMILES | result
Cc1nc(CCCCCCC(O)c2ccccc2)n2nc(Cl)ccc12 | >0.08 µM
CCC(CC)NC(=O)C[C@@H](C(=O)NC[C@@H](O)[C@H](Cc1ccccc1)NC(=O)[C@H](CC(N)=O)NC(=O)c1cnc2ccccc2n1)C(C)(C)C | >1 µM
Cc1cn([C@H]2C[C@H](N=[N+]=[N-])[C@@H](CO)O2)c(=O)[nH]c1=O | 2905 µM
CC1=C[C@H]([C@H](O)[C@H](C)[C@@H]2C[C@@H](O)[C@@]3(O)[C@H]4CC[C@@H]5C(C)(C)O[C@H]6CC(=O)O[C@]65C[C@]4(O)CC[C@@]23C)OC1=O | >200 µg/mL
CCCOn1c(CC)nc2c(C)cccc21 | 1002 µM
O=C1c2ccncc2C(=O)N1CCNC(=S)Nc1ccc(Br)cn1 | 52 µM
CCC(CC)NC(=O)C[C@@H](C(=O)NC[C@@H](O)[C@H](Cc1ccccc1)NC(=O)[C@@H](NC(=O)c1cnc2ccccc2n1)C(C)O)C(C)(C)C | >1 µM
CC(C)=CCOn1c(C=C(C)C)nc2ccc(C)cc21 | 50 µM
Oc1cc(O)c2c(c1)O[C@H](c1ccc(O)c(O)c1)[C@H](O)C2 | >100 µg/mL
CC1=CCCC2C1(C)CCC(C)[C@@]2(C)CC1=CC(=O)C(NC(C)C(=O)O)=CC1=O | 5.7 µM
CC1CNC(=O)c2ccccc2SSc2ccccc2C(=O)N1 | >0.05 µg/mL
CCCCCCCCCc1ccc(OCCOCCOCCOCCOCCOCCOCCOCCOCCOCCO)cc1 | >10 µg/mL
COc1cc(/C=C/C(=O)O)cc(OC)c1O | 200 µg/mL
Cc1cn([C@H]2C[C@H](N=[N+]=[N-])[C@@H](CO)O2)c(=O)[nH]c1=O | >1000 µM
CC(C)=CCN1Cc2cc(Cl)cc3[nH]c(=S)n(c23)C[C@@H]1C | 62 µM
Cc1nc(CCCCCOC(=O)c2ccccc2)n2nc(Cl)ccc12 | >1.6 µM
COC(=O)CCC(C)[C@H]1CCC2C3CC[C@@H]4C[C@H](OC(=O)c5ccccc5)CC[C@]4(C)C3=C(N)C(=O)[C@@]21C | 50 µM
O=C1c2c(O)cc(O)c(O)c2O[C@H](c2ccc(O)cc2)[C@H]1O | >100 µg/mL
O=c1[nH]cnc2c1ncn2[C@H]1CC[C@@H](CO)O1 | 967 µM
CCN1c2ncccc2N(C)C(=O)c2c1c1ccccc1n2CC | 25 µM
COc1cc(-c2oc3cc(O)cc(O)c3c(=O)c2O[C@@H]2O[C@H](CO[C@@H]3O[C@@H](C)[C@H](O)[C@@H](O)[C@H]3O)[C@@H](O)[C@H](O)[C@H]2O)ccc1O | >200 µg/mL
C=C(C)C1Oc2ccc(C(C)=O)cc2C1OC(C)=O | 50 µg/mL
Cc1nc(CCCCCOCc2ccccc2)n2nc(Cl)ccc12 | >0.38 µM
Oc1cc(O)c2c(c1)O[C@H](c1cc(O)c(O)c(O)c1)[C@@H](O)C2 | >80 µg/mL
CC1=CCCC2C1(C)CCC(C)[C@@]2(C)CC1=CC(=O)C(NC(CC(C)C)C(=O)O)=CC1=O | 8.8 µM
C=CCOn1c(C=C)nc2c(C)cccc21 | 16 µM
C=C(C)C(O)Cc1cc(C(C)=O)ccc1O | 50 µg/mL
O=C(C=Cc1ccc(O)c(O)c1)O[C@@H]1C[C@](O)(C(=O)O)C[C@@H](O)[C@H]1O | >500 µg/mL
Cc1nc(CCCCCCC(=O)c2ccccc2)n2nc(-n3cccc3)ccc12 | >0.007 µM
O=c1cc(-c2ccc(O)cc2)oc2cc(O)cc(O)c12 | 2 µg/mL
CC1=CCCC2C1(C)CCC(C)[C@@]2(C)CC1=CC(=O)C(NC(CO)C(=O)O)=CC1=O | 23.5 µM
Cc1ccc2c(c1)n(CCNC(=S)Nc1ccc(Br)cn1)c(=O)c1cccn12 | 14 µM
CC(C)(C)NC(=O)[C@@H]1CCCCN1C[C@@H](O)[C@H](Cc1ccccc1)NC(=O)[C@H](CC(N)=O)NC(=O)c1ccc2ccccc2n1 | >100 µM
Cc1ccnc2c1NC(=O)c1cccnc1N2C1CC1 | 321 µM
COc1ccc2nc(C=C(C)C)n(OCC=C(C)C)c2c1 | 80 µM
O=C(O)C1(O)C[C@@H](O)C(O)[C@H](O)C1 | >250 µg/mL
C[C@@H](Cn1cnc2c(N)nc(N)nc21)OCP(=O)(O)O | >300 µM
CCNC1=CC(=O)C(C[C@]2(C)C(C)CCC3(C)C(C)=CCCC32)=CC1=O | 18.6 µM
CC(C)[C@H](NC(=O)c1ccc2ccccc2n1)C(=O)N[C@@H](Cc1ccccc1)[C@H](O)CN1CC[C@@H](OCc2ccncc2)C[C@H]1C(=O)NC(C)(C)C | >1 µM
COC(=O)CCC(C)[C@H]1CCC2C3CC[C@@H]4C[C@H](OC(=O)c5ccccc5)CC[C@]4(C)C3=C(NC(=O)C(C)(C)C)C(=O)[C@@]21C | 1000 µM
O=c1c2cccn2ccn1CCNC(=S)Nc1ccc(Br)cn1 | 22.5 µM
O=C(/C=C/c1ccc(O)c(O)c1)O[C@H]1[C@H](O)C[C@](O)(C(=O)O)C[C@H]1OC(=O)/C=C/c1ccc(O)c(O)c1 | 40 µg/mL
CC(C)C[C@H](NC(=O)[C@H](CC(=O)OS(=O)(=O)O)NC(=O)[C@@H](N)Cc1ccc(OS(=O)(=O)O)cc1)C(=O)N[C@@H](CC(=O)OS(=O)(=O)O)C(=O)N[C@@H](Cc1ccc(OS(=O)(=O)O)cc1)C(=O)N[C@@H](Cc1ccc(OS(=O)(=O)O)cc1)C(=O)O.CCN(CC)CC.CCN(CC)CC.CCN(CC)CC.CCN(CC)CC.CCN(CC)CC | >1000 µg/mL
Cc1cn([C@H]2C[C@H](N=[N+]=[N-])[C@@H](COP(=O)(N[C@@H](C)C(=O)OCc3ccccc3)OCC(Cl)(Cl)Cl)O2)c(=O)[nH]c1=O | <100 µM
O=C1c2c(O)cc(O)cc2O[C@H](c2ccc(O)cc2)[C@H]1O | >200 µg/mL
Cc1cn([C@H]2C[C@H](N=[N+]=[N-])[C@@H](COP(=O)(Oc3ccc([N+](=O)[O-])cc3)Oc3ccc([N+](=O)[O-])cc3)O2)c(=O)[nH]c1=O | 40 µM
CC(C)(C)OC(=O)[C@@H]1CCCN1C[C@@H](O)[C@H](Cc1ccccc1)NC(=O)[C@H](CC(N)=O)NC(=O)OCc1ccccc1 | >100 µM
CCCCCCCCCc1ccc(OCCOCCOCCOCCOCCOCCOCCOCCO)cc1 | >10 µg/mL
COC(=O)C(C)NP(=O)(OC[C@H]1O[C@@H](n2cc(C)c(=O)[nH]c2=O)C[C@@H]1N=[N+]=[N-])Oc1ccc([N+](=O)[O-])cc1 | 100 µM
O=C(O)/C=C/c1ccc(O)c(O)c1 | 200 µg/mL
O=C(/C=C/c1ccc(O)c(O)c1)O[C@H]1[C@H](O)C[C@](O)(C(=O)O)C[C@H]1OC(=O)/C=C/c1ccc(O)c(O)c1 | 40 µg/mL
Nc1ncnc2c1ncn2[C@H]1CC[C@@H](CO)O1 | >1000 µM
O=c1cc(-c2ccccc2)oc2cc(O)c(O)c(O)c12 | 50 µg/mL
CC(C)(C)NC(=O)[C@@H]1C[C@@H]2CCCC[C@@H]2CN1C[C@@H](O)[C@H](Cc1ccccc1)NC(=O)[C@H](CC(N)=O)NC(=O)c1ccc2ccccc2n1 | 90 µM
Nc1ccn([C@H]2CC[C@@H](CO)O2)c(=O)n1 | >1000 µM
Nc1ccn([C@H]2CC[C@@H](CO)O2)c(=O)n1 | >1000 µM
O=C(CCCCCCc1ncc2ccc(Cl)nn12)c1ccccc1 | >0.21 µM
CO[C@H]1/C=C/O[C@@]2(C)Oc3c(C)c(O)c4c(c3C2=O)C(=O)C(SCCOC(=O)CCC(=O)OC[C@H]2O[C@@H](n3cc(C)c(=O)[nH]c3=O)C[C@@H]2N=[N+]=[N-])=C(NC(=O)/C(C)=C\C=C\[C@H](C)[C@H](O)[C@@H](C)[C@@H](O)[C@@H](C)[C@H](OC(C)=O)[C@@H]1C)C4=O | >30 µM
CCN1c2ncccc2N(C)C(=S)c2oc3cccnc3c21 | >60 µM
CC1(C)S[C@H]([C@H](NC(=O)Cc2ccccc2)C(=O)NCc2ccccc2)N[C@H]1C(=O)NCCNC(=O)[C@@H]1N[C@@H]([C@H](NC(=O)Cc2ccccc2)C(=O)NCc2ccccc2)SC1(C)C | >110 µM
CCNC1=CC(=O)C=C(C[C@]2(C)C(C)CCC3(C)C(C)=CCCC32)C1=O | 2.5 µM
CCCCCCCOn1c(CCCCCC)nc2c(C)cccc21 | 400 µM
CCN1c2cc(C)c(C)cc2N(C)S(=O)(=O)c2cccnc21 | 150 µM
Cc1cn([C@H]2C[C@H](N=[N+]=[N-])[C@@H](CO)O2)c(=O)[nH]c1=O | >30 µM
CCC(CC)NC(=O)C[C@@H](C(=O)NC[C@@H](O)[C@H](Cc1ccccc1)NC(=O)[C@H](CC(N)=O)NC(=O)OCc1ccccc1)C(C)(C)C | >1 µM
COc1cc(C(c2ccc(O)c(OC)c2)C(C(=O)O)C(CO)CO)ccc1O | 73.8 µg/mL
CN1C(=O)C(c2ccccc2)C(=O)N(c2ccccc2)c2cc(C(F)(F)F)ccc21 | >20 µM
CC(C)(C)NC(=O)[C@@H]1CCCN1C[C@@H](O)[C@H](Cc1ccccc1)NC(=O)[C@H](CC(N)=O)NC(=O)OCc1ccccc1 | >100 µM
COc1ccc(C2CC(=O)c3c(O)cc(O[C@@H]4O[C@H](COC5O[C@@H](C)[C@H](O)[C@@H](O)[C@H]5O)[C@@H](O)[C@H](O)[C@H]4O)cc3O2)cc1 | 40 µg/mL
CNC1=CC(=O)C(C[C@]2(C)C(C)CCC3(C)C(C)=CCCC32)=CC1=O | 16.2 µM
O=C(CN1CCCC1)Nc1ccc(Cc2ccc(NC(=O)CN3CCCC3)cc2)cc1 | 73.11 µg/mL
CCC(CC)NC(=O)C[C@@H](C(=O)NC[C@@H](O)[C@H](Cc1ccccc1)NC(=O)[C@@H](NC(=O)OCc1ccccc1)C(C)C)C(C)(C)C | >1 µM
CC[C@]1(c2ccccc2)Oc2cccnc2-n2cccc2C1=O | 53.9 µM

Repeating the final 9 entries:

SMILES,result
CCC(CC)NC(=O)C[C@@H](C(=O)NC[C@@H](O)[C@H](Cc1ccccc1)NC(=O)[C@H](CC(N)=O)NC(=O)OCc1ccccc1)C(C)(C)C,>1 µM
COc1cc(C(c2ccc(O)c(OC)c2)C(C(=O)O)C(CO)CO)ccc1O,73.8 µg/mL
CN1C(=O)C(c2ccccc2)C(=O)N(c2ccccc2)c2cc(C(F)(F)F)ccc21,>20 µM
CC(C)(C)NC(=O)[C@@H]1CCCN1C[C@@H](O)[C@H](Cc1ccccc1)NC(=O)[C@H](CC(N)=O)NC(=O)OCc1ccccc1,>100 µM
COc1ccc(C2CC(=O)c3c(O)cc(O[C@@H]4O[C@H](COC5O[C@@H](C)[C@H](O)[C@@H](O)[C@H]5O)[C@@H](O)[C@H](O)[C@H]4O)cc3O2)cc1,40 µg/mL
CNC1=CC(=O)C(C[C@]2(C)C(C)CCC3(C)C(C)=CCCC32)=CC1=O,16.2 µM
O=C(CN1CCCC1)Nc1ccc(Cc2ccc(NC(=O)CN3CCCC3)cc2)cc1,73.11 µg/mL
CCC(CC)NC(=O)C[C@@H](C(=O)NC[C@@H](O)[C@H](Cc1ccccc1)NC(=O)[C@@H](NC(=O)OCc1ccccc1)C(C)C)C(C)(C)C,>1 µM
CC[C@]1(c2ccccc2)Oc2cccnc2-n2cccc2C1=O,53.9 µM